Measurements reported in PubChem BioAssay AID624099 (ICCB-Longwood, 2012)

Test: 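Human genes that papillomavirus E2 requires to repress the HPV18 LCR promoter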 (primary screen)
Cells: human C33A cervical carcinoma cells (HPV-negative) stably expressing BPV1 E2 and an HPV18 LCR luciferase reporter
Reagent: siRNA pool against human genes, 40 nM
Duration: 72 h
Read-out: 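HPV18 LCR reporter light per well, converted to plate-wise z-scores that exclude control wells, and averaged over triplicate plates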
Reading the numbers: mean z-score and z-score: higher = stronger reporter signal, weaker E2 silencing
Active means: 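Mean z ≥ 2 together with z ≥ 2 in two or more of the three replicates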
The whole screen tested about 21,000 reagents; this is a random part of them. 497 of them (2.4%) count as active. 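Higher z means weaker E2 silencing; only reporter increases were scored, and knock-downs that hurt cell survival may mask genuine repressor factors.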 Unmarked entries are inactive.

C7 showed mean z-score -0.62; z-score, replicate A = -0.77; z-score, replicate B = -0.37; z-score, replicate C = -0.74.
Against CDKN2D the deposit lists mean z-score 0.62; z-score, replicate A = -0.27; z-score, replicate B = 1.05; z-score, replicate C = 1.08.
Depletion of LOC107984784 came out at: mean z-score -0.26; z-score, replicate A = -0.04; z-score, replicate B = -0.37; z-score, replicate C = -0.39.
After knock-down of STARD9, the screen gave mean z-score -0.57; z-score, replicate A = -0.76; z-score, replicate B = -0.52; z-score, replicate C = -0.42.
For STX2 the deposit lists mean z-score -0.51; z-score, replicate A = -0.68; z-score, replicate B = -0.53; z-score, replicate C = -0.31.
Depletion of ISCA2 resulted in: mean z-score 0.5; z-score, replicate A = 0.72; z-score, replicate B = 0.43; z-score, replicate C = 0.34.
PFDN5 gave mean z-score 0.62; z-score, replicate A = 0.7; z-score, replicate B = 0.71; z-score, replicate C = 0.44.
Against GARIN1A the deposit lists mean z-score -0.19; z-score, replicate A = 0.06; z-score, replicate B = -0.35; z-score, replicate C = -0.29.
Depletion of CREM gave: mean z-score -0.76; z-score, replicate A = -0.75; z-score, replicate B = -0.78; z-score, replicate C = -0.73.
With knock-down of AADAT, the record shows mean z-score -0.12; z-score, replicate A = -0.12; z-score, replicate B = -0.22; z-score, replicate C = -0.01.
Depletion of CP came out at: mean z-score -0.66; z-score, replicate A = -0.42; z-score, replicate B = -0.72; z-score, replicate C = -0.83.
SLC10A5 gave mean z-score -0.34; z-score, replicate A = -0.05; z-score, replicate B = -0.42; z-score, replicate C = -0.54.
NLRP12 gave mean z-score -0.64; z-score, replicate A = -0.93; z-score, replicate B = -0.33; z-score, replicate C = -0.65.
Against APH1A, the values are mean z-score -0.25; z-score, replicate A = -0.65; z-score, replicate B = -0.15; z-score, replicate C = 0.06.
Knock-down of SETP14 resulted in: mean z-score 0.03; z-score, replicate A = 0.31; z-score, replicate B = -0.18; z-score, replicate C = -0.03.
After knock-down of FOXD2, the screen gave mean z-score 1.06; z-score, replicate A = 1.05; z-score, replicate B = 0.93; z-score, replicate C = 1.19.
Against NCAPG, the values are mean z-score 1.16; z-score, replicate A = 1.62; z-score, replicate B = 1.27; z-score, replicate C = 0.6.
KIR2DL4 gave mean z-score -1.23; z-score, replicate A = -1.13; z-score, replicate B = -1.35; z-score, replicate C = -1.2.
FKBP5 scored mean z-score -0.34; z-score, replicate A = -0.12; z-score, replicate B = -0.45; z-score, replicate C = -0.45.
TAF7L showed mean z-score 0.29; z-score, replicate A = 0.1; z-score, replicate B = 0.3; z-score, replicate C = 0.47.
Against RAB33A the deposit lists mean z-score 0.83; z-score, replicate A = 1.06; z-score, replicate B = 0.63; z-score, replicate C = 0.79.

Copied from the listing for reference:
STARD9 — mean z-score = -0.57; z-score, replicate A = -0.76; z-score, replicate B = -0.52; z-score, replicate C = -0.42
STX2 — mean z-score = -0.51; z-score, replicate A = -0.68; z-score, replicate B = -0.53; z-score, replicate C = -0.31
ISCA2 — mean z-score = 0.5; z-score, replicate A = 0.72; z-score, replicate B = 0.43; z-score, replicate C = 0.34
